Test results published in patent US20050120398A1, “Animal model for HCV infection” (Vertex Pharmaceuticals Incorporated, priority 2003, published 2005).

Target: Ad.WT.HCVpro (wild type HCV NS3•4A protease fused with SEAP) (Hepatitis C virus genotype 1a, UniProt P27958)
Test: HCV protease mouse model: SEAP in serum, wild type HCV protease adenovirus
Conditions: 300 mg/kg orally twice a day; 10^9.5 IFU/mice Ad.WT.HCVpro; serum 24 hours post-infection

CCC[C@H](NC(=O)[C@@H]1[C@H]2CCC[C@H]2CN1C(=O)[C@@H](NC(=O)[C@@H](NC(=O)c1cnccn1)C1CCCCC1)C(C)(C)C)C(=O)C(=O)NC1CC1 [VX-950]
fold reduction in the SEAP secretion in the serum compared to untreated controls: 27 fold
